Compound potency records, mixed from different reports. Data source: NIAID ChemDB in PubChem.

Shared fields: target-level tests; agent: Varicella zoster virus

ICn: concentration for n% inhibition. Blank or dashed fields: not listed here. Rows are shuffled and stem from different studies.

{"smiles": "Cn1cc(C(=O)NCc2ccc(Cl)cc2)c(=O)c2cc(CN3CCOCC3)ccc21", "protein": "DNA polymerase", "strain": "TYPE 2", "endpoint": "IC50", "result": "0.37 µM"}
{"smiles": "O=C(NCc1ccc(Cl)cc1)c1n[nH]c2ccccc2c1=O", "protein": "DNA polymerase", "endpoint": "IC50", "result": "10.1 µM"}
{"smiles": "Nn1cc(C(=O)NCc2ccc(Cl)cc2)c(=O)c2cc(C#CCO)ccc21", "protein": "DNA polymerase", "endpoint": "IC50", "result": "0.22 µM"}
{"smiles": "CC(=O)/C=C/C(=O)N[C@@H](C)c1nc2scc(C)c2c(=O)o1", "protein": "Protease", "endpoint": "IC50", "result": "1.6 µM"}
{"smiles": "Nc1ncnc2c1ncn2[C@H]1CC[C@@H](CO)O1", "protein": "Thymidylate synthetase", "strain": "KANNO (TK+)", "endpoint": "IC50", "result": ">100 µM"}
{"smiles": "O=C(NCc1ccc(Cl)cc1)c1cn(N2CCOCC2)c2ccc(CN3CCOCC3)cc2c1=O", "protein": "DNA polymerase", "endpoint": "IC50", "result": "0.2 µM"}
{"smiles": "O=C(NCc1ccc(Cl)cc1)c1c[nH]c2c(F)cccc2c1=O", "protein": "DNA polymerase", "endpoint": "Ki", "result": "2 µM"}
{"smiles": "C/C=C/c1cn([C@H]2C[C@H](O)[C@@H](CO)O2)c(=O)[nH]c1=O", "protein": "Thymidine kinase", "endpoint": "Ki", "result": "0.3 µM"}
{"smiles": "Nc1nc2c(ncn2CC[C@@H](O)COP(=O)(O)OP(=O)(O)OP(=O)(O)O)c(=O)[nH]1", "protein": "DNA polymerase", "endpoint": "IC50", "result": "3.25 µM"}
{"smiles": "O=c1[nH]c(=O)n([C@@H]2CO[C@H](CO)O2)cc1/C=C/Br", "protein": "Thymidine kinase", "endpoint": "Ki", "result": "125 µM"}
{"smiles": "O=c1[nH]c(=O)n([C@H]2C[C@H](O)[C@@H](CO)O2)cc1/C=C/Br", "protein": "Thymidylate synthetase", "strain": "Kanno-Kohmura (TK-)", "endpoint": "IC50", "result": "14 µM"}
{"smiles": "C[C@@H](O)Cn1cnc2c(Cl)nc(N)nc21", "protein": "Thymidine kinase", "endpoint": "Ki", "result": "1500 µM"}
{"smiles": "NC1=NC2C(C=CN2CC(CO)CCOP(=O)(O)OP(=O)(O)OP(=O)(O)O)C(=O)N1", "protein": "DNA polymerase", "endpoint": "Ki", "result": "0.3 µM"}
{"smiles": "Cc1cn([C@H]2CC[C@@H](CO)O2)c(=O)[nH]c1=O", "protein": "Thymidylate synthetase", "strain": "KANNO (TK+)", "endpoint": "IC50", "result": ">100 µM"}
{"smiles": "O=C(NCc1ccc(Cl)cc1)c1cn(N2CCCC2)c2ccc(CN3CCOCC3)cc2c1=O", "protein": "DNA polymerase", "endpoint": "IC50", "result": "0.88 µM"}
{"smiles": "Nc1ccn(C[C@@H](CO)OCP(=O)(O)O)c(=O)n1", "protein": "Thymidylate synthetase", "strain": "KANNO (TK+)", "endpoint": "IC50", "result": ">100 µM"}
{"smiles": "CCCOc1ncnc2c1ncn2[C@@H]1O[C@H](CO)[C@@H](O)[C@@H]1O", "protein": "Thymidine kinase", "strain": "OKA", "endpoint": "Ki", "result": "1200 µM"}
{"smiles": "C[C@@H](O)Cn1cnc2c(CS)ncnc21", "protein": "Thymidine kinase", "endpoint": "Ki", "result": "1100 µM"}
{"smiles": "C[C@H](Cn1cnc2c(N)ncnc21)OCP(=O)(O)O", "protein": "Thymidylate synthetase", "strain": "KANNO (TK+)", "endpoint": "IC50", "result": ">100 µM"}
{"smiles": "C[C@@H](O)Cn1cnc2c(N)ncnc21", "protein": "Thymidine kinase", "endpoint": "Ki", "result": "3800 µM"}
{"smiles": "O=C(NCc1ccc(Cl)cc1)c1cn(N2CCCCC2)c2ccc(CN3CCOCC3)cc2c1=O", "protein": "DNA polymerase", "endpoint": "IC50", "result": "0.3 µM"}

Again, the opening 3 rows:

smiles | protein | strain | endpoint | result
Cn1cc(C(=O)NCc2ccc(Cl)cc2)c(=O)c2cc(CN3CCOCC3)ccc21 | DNA polymerase | TYPE 2 | IC50 | 0.37 µM
O=C(NCc1ccc(Cl)cc1)c1n[nH]c2ccccc2c1=O | DNA polymerase | - | IC50 | 10.1 µM
Nn1cc(C(=O)NCc2ccc(Cl)cc2)c(=O)c2cc(C#CCO)ccc21 | DNA polymerase | - | IC50 | 0.22 µM